Substitutions are numbered along the chain they refer to. Names and notes keep the numbering of the source.

This data set in a line: Isothermal titration calorimetry (ITC) of STX into Sxph. The following applies: 25° C., single binding site model. For orientation: In ITC the heat of successive injections is recorded.

B1: Y558A: RcSxph mutant, alanine for tyrosine at position 558 (protein)
chain: MAPTFQTALFFTIISLSFAAPNAKQVRWCAISDLEQKKCNDLVGSCNVPDITLVCVLRSSTEDCMTAIKDGQADAMFLDSGEVYEASKDPYNLKPIIAEPYSSNRDLQKCLKERQQALAKKMIGHYIPQCDEKGNYQPQQCHGSTGHCWCVNAMGEKISGTNTPPGQTRATCERHELPKCLKERQVALGGDEKVLGRFVPQCDEKGNYEPQQFHGSTGYSWCVNAIGEEIAGTKTPPGKIPATCQKHDLVTTCHYAVAMVKKSSAFQFNQLKGKRSCHSGVSKTDGWKALVTVLVEKKLLSWDGPAKESIQRAMSKFFSVSCIPGATQTNLCKQCKGEEGKNCKNSHDEPYYGNYGAFRCLKEDMGDVAFLRSTALSDEHSEVYELLCPDNTRKPLNKYKECNLGTVPAGTVVTRKISDKTEDINNFLMEAQKRQCKLFSSAHGKDLMFDDSTLQLALLSSEVDAFLYLGVKLFHAMKALTGDAHLPSKNKVRWCTINKLEKMKCDDWSAVSGGAIACTEASCPKGCVKQILKGEADAVKLEVQYMYEALMCGLLPAVEEYHNKDDFGPCKTPGSPATDFGTLRAVALVKKSNKDINWNNIKGKKSCHTGVGDIAGWVIPVSLIRRQNDNSDIDSFFGESCAPGSDTKSNLCKLCIGDPKNSAANTKCSLSDKEAYYGNQGAFRCLVEKGDVAFVPHTVVFENTDGKNPAVWAKNLKSEDFELLCLDGSRAPVSNYKSCKLSGIPPPAIVTREESISDVVRIVANQQSLYGRKGFEKDMFQLFSSNKGNNLLFNDNTQCLITFDRQPKDIMEDYFGKPYYTTVYGASRSAMSSELISACTIKHC
As for B1, the “N (sites), stoichiometry” value stood at 1.01 ± 0.01 sites.

B2: Y558I: RcSxph mutant, isoleucine for tyrosine at position 558 (protein)
chain: B1 chain with A577I
Turning to B2, the “N (sites), stoichiometry” value was determined as 1.05 ± 0.03 sites.

For the origin of these results see patent US20260063625A1, “COMPOSITIONS FOR AND METHODS OF DETECTING FOOD TOXINS” (priority 2022, published 2026).
